Results of unrelated studies side by side (data: NIAID ChemDB).

Inhibition is in % at the dose shown (toxicity tests: loss of growth or viability). ECn: concentration that inhibits the pathogen or its effect by n%. Two numbers with a dash give a range or band. A number after MIC or MFC names an inhibition level or a share of isolates. Neighbouring rows are from separate reports. ICn: concentration for n% inhibition. An empty or dashed field is not shown.

compound | test | organism | strain | cell line | target | read by | endpoint | tested at | value
CC(C)=CCN1Cc2cccc3[nH]c(=S)n(c23)C[C@@H]1C | host protein | Human |  |  | DNA polymerase beta |  | IC50 |  | >175 µM
COc1cccc(CC2CCc3nc(N)nc(N)c3C2)c1 | target | Cryptosporidium parvum | TYPE 1 |  | Dihydrofolate reductase |  | IC50 |  | 1.2 µM
C=CCN(C(=O)Cc1ccc(Cl)cc1Cl)c1cc(-c2ccccc2)sc1C(=O)O | target | Hepatitis C virus |  |  | NS3 ATPase |  | IC50 |  | 5–20 µM
c1ccc(C2CCN(c3cncc(-c4ccsc4)n3)CC2)cc1 | target | Cytomegalovirus |  |  | UL97 kinase |  | inhibition | 1 µM | <50%
CN(C(=O)c1ccc(C(F)(F)F)c(F)c1F)c1cc(-c2ccccc2)sc1C(=O)O | target | Hepatitis C virus |  |  | NS3 ATPase |  | IC50 |  | 5–20 µM
CCC(CC)O[C@@H]1C=C(C(=O)O)C[C@H](N)[C@H]1NC(C)=O | culture | Influenza A virus | Influenza A/Washington/05/96 (H3N2) | MDCK |  |  | EC50 |  | 0.08 µM
CCOC(=O)/C=C/[C@H](C[C@@H]1CCNC1=O)NC(=O)[C@@H](CC(=O)[C@@H](NC(=O)c1cc(C)on1)C(C)C)Cc1ccc(F)cc1 | culture | Rhinovirus | Isolate 17 | OHIO HELA-I |  | cytopathic effect / visual reading | EC50 |  | <0.01 µg/mL
Cc1ccccc1S(=O)(=O)Nc1cc(-c2ccc(Cl)cn2)sc1C(=O)O | target | Hepatitis C virus |  |  | NS3 ATPase |  | IC50 |  | <5 µM
Oc1ccccc1N=Cc1ccc(F)cc1 | culture | Cryptococcus neoformans | C-3-1 |  |  |  | MIC99 |  | 4 µg/mL
O=S(=O)(O)c1ccc(N=Nc2c(O)ccc3cc(S(=O)(=O)O)ccc23)cc1 | culture | Adenovirus | TYPE 3 | Human embryonic lung cells |  | cytopathic effect | inhibition | 50 µg/mL | 0%
COc1cc(Cc2sc3nc(N)nc(N)c3c2C)cc(OC)c1OC | target | Cryptosporidium parvum | TYPE 1 |  | Dihydrofolate reductase |  | IC50 |  | 2.3 µM
CCO/N=C/c1ccc(OCCC2CCN(c3ccc(Cl)nn3)CC2)cc1 | culture | Rhinovirus | 1963M-CV40 (LDL receptor group 62) | KB |  | neutral red | EC50 |  | 0.696 µM
O=C(O)c1sc(-c2ccccc2)cc1N(Cc1ccc([N+](=O)[O-])cc1)C(=O)CC1CCCC1 | target | Hepatitis C virus |  |  | NS3 ATPase |  | IC50 |  | <5 µM
Oc1cccc(C=Nc2ccccc2O)c1 | culture | Cryptococcus gattii | L-28/02 |  |  |  | MIC99 |  | 5.7 µg/mL
C=CCc1ccc(OC)c(OC)c1 | culture | Candida albicans | 2508 |  |  | turbidity | MIC90 |  | 345 µg/mL
COc1ccc2c(c1OC)Cc1nc(N)nc(N)c1-2 | target | Cryptosporidium parvum | TYPE 1 |  | Dihydrofolate reductase |  | IC50 |  | >10 µM
O=C(O)c1ccc(S(=O)(=O)[O-])cc1C(=O)O | culture | Herpes simplex virus |  | Human amnion AV3 cells |  | cytopathic effect | inhibition | 5 µg/mL | 0%
Cc1nc(NCCCCNc2ccnc3cc(Cl)ccc23)nc(-c2ccccc2[N+](=O)[O-])c1C(=O)OC(C)C | culture | Cryptococcus gattii | L 27/01 |  |  |  | MIC99 |  | 32 µg/mL
COc1cc(CCN2CCc3nc(N)nc(N)c3C2)cc(OC)c1OC | target | Cryptosporidium parvum | TYPE 2 |  | Dihydrofolate reductase |  | IC50 |  | >10 µM
O=S(=O)([O-])c1cc(O)c2ccccc2c1 | culture | Herpes simplex virus |  | Human amnion AV3 cells |  | cytopathic effect | inhibition | 10 µg/mL | 0%
CC(=O)c1ccc(N2CCN(c3cncc(-c4cccc(C)c4)n3)CC2)cc1 | target | Cytomegalovirus |  |  | UL97 kinase |  | IC50 |  | <100 µM
O=S(=O)(O)c1cc(O)c2c(O)cc(S(=O)(=O)O)cc2c1 | culture | Adenovirus | TYPE 3 | Human amnion AV3 cells |  | cytopathic effect | inhibition | 5 µg/mL | 0%
Cc1ccc(N2CCN(c3cncc(-c4csc5ccccc45)n3)CC2)cc1 | target | Cytomegalovirus |  |  | UL97 kinase |  | IC50 |  | <100 µM
CCCC(C)NC(=O)c1ccc(N(C)Cc2ccc3nc(N)nc(N)c3n2)cc1 | target | Cryptosporidium parvum | TYPE 2 |  | Dihydrofolate reductase |  | IC50 |  | 1.3 µM
Nc1c(S(=O)(=O)[O-])cc2cc(S(=O)(=O)[O-])ccc2c1O | culture | Herpes simplex virus |  | Human amnion AV3 cells |  | cytopathic effect | inhibition | 5 µg/mL | 0%
Nc1nc(N)c2nc(Cc3ccc(Cl)c(Cl)c3)c(Cc3ccc(Cl)c(Cl)c3)nc2n1 | target | Cryptosporidium parvum | TYPE 1 |  | Dihydrofolate reductase |  | IC50 |  | 0.25 µM
O=S(=O)([O-])c1ccc2c(S(=O)(=O)[O-])cc(S(=O)(=O)[O-])cc2c1 | culture | Adenovirus | TYPE 3 | Human amnion AV3 cells |  | cytopathic effect | inhibition | 5 µg/mL | 0%
Cc1ccc(-c2cncc(N3CCN(c4ccc(F)cc4)CC3)n2)cc1 | target | Cytomegalovirus |  |  | UL97 kinase |  | inhibition | 1 µM | <50%
O=C(O)c1sc(-c2ccccc2)cc1N(C(=O)c1ccc(Cl)cc1Cl)C(CO)CO | target | Hepatitis C virus |  |  | NS3 ATPase |  | IC50 |  | <5 µM
Fc1ccc(N2CCCCC2)c(NC(=S)c2ccncc2)c1 | host protein |  |  |  | PKCtheta | kinase activity | inhibition | 10 µM | 18%
COc1cccc(N2CCN(c3cnccn3)C(c3cc4ccccc4o3)C2)c1 | target | Cytomegalovirus |  |  | UL97 kinase |  | inhibition | 1 µM | <50%
Nc1nc(N)c2c(n1)CCCc1cc(Cl)c(Cl)cc1-2 | target | Cryptosporidium parvum | TYPE 1 |  | Dihydrofolate reductase |  | IC50 |  | >10 µM
CCOC(=O)c1c(C)nc(OCCCNc2ccnc3cc(Cl)ccc23)nc1-c1ccccc1 | culture | Cryptococcus gattii | 135L/03 |  |  |  | MIC99 |  | 8 µg/mL

The last 3 rows once more:

compound,test,organism,strain,cell line,target,read by,endpoint,tested at,value
COc1cccc(N2CCN(c3cnccn3)C(c3cc4ccccc4o3)C2)c1,target,Cytomegalovirus,,,UL97 kinase,,inhibition,1 µM,<50%
Nc1nc(N)c2c(n1)CCCc1cc(Cl)c(Cl)cc1-2,target,Cryptosporidium parvum,TYPE 1,,Dihydrofolate reductase,,IC50,,>10 µM
CCOC(=O)c1c(C)nc(OCCCNc2ccnc3cc(Cl)ccc23)nc1-c1ccccc1,culture,Cryptococcus gattii,135L/03,,,,MIC99,,8 µg/mL